PubChem BioAssay AID504761 | Drosophila RNAi Screening Center – 2011

Aim: 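Insect host genes that dengue virus relies on to spread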 (primary screen)
Cell system: D.Mel-2 cells from Drosophila
Reagents: long dsRNA against Drosophila genes
Treatment: infection with dengue virus type 2; dose and infection time not stated
Detection: 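Per well on two replicate plates, imaging gave the percent of cells positive for viral envelope protein, ranked by infection, and a nuclear count of cells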
Scale: infection score: higher = more virus-infected cells
Hit rule: 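Low infection ranks in the two replicates (chance level up to 0.065) followed by a retest with a 1.5-fold or larger significant decrease, p below 0.05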
Calls: active = confirmed: knock-down lowers infection; inactive = not picked or not confirmed
The screen tested about 22,000 reagents; shown is a random part of those that have a named target and a result. In the full data, 116 (0.52%) got an active call. 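Calls depend on retest data that are not deposited; infection was ranked per plate without normalising between plates; the unit of the infection score is not given.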 Unmarked entries are inactive. Further read-outs or replicates are left out here. The record does not give: the amount of reagent, the time to read-out.

infection score, replicate 1, by predicted target and reagent
ago (GeneID 38516): DRSC08463 7.54
RpS18 (GeneID 37292): DRSC07540 11.3
Oatp26F (GeneID 33927): DRSC02149 3.84; DRSC02272 2.85; DRSC02695 2.95; DRSC27346 12.7
CG30385 (GeneID 246585): DRSC06031 1.91
CG42709 (GeneID 39453): DRSC10277 9.24; DRSC25693 1.71
Msh6 (GeneID 39654): DRSC10759 0.88
CG1951 (GeneID 43423): DRSC15403 1.6
Dad1 (GeneID 34159): DRSC02263 4.93
Oatp58Dc (GeneID 37545): DRSC04363 3.7; DRSC24688 5.44
NUCB1 (GeneID 39978): DRSC22137 0.65; DRSC29109 9.88
Cirl (GeneID 35846): DRSC23235 6.12; DRSC28280 12.8
CG31524 (GeneID 318781): DRSC22014 1.94; DRSC28999 0.25
CG15742 (GeneID 32276): DRSC19708 1.34; DRSC28195 24.7
Prosbeta5R1 (GeneID 37690): DRSC04581 3.53; DRSC29901 18.9
